Anti-infective test results gathered from many reports (values: NIAID ChemDB through PubChem).

Common to all: growth or infection tests

Lines come from different laboratories, so protocols vary.

compound	mutations	method	organism	strain or isolate	conditions	endpoint	value
COc1cc(Cc2cnc(N)nc2N)cc(OC)c1Br	-	-	Mycobacterium ulcerans	Isolate 5155	-	MIC	8 µg/mL
CCC1CN(c2nc3c(cc2F)c(=O)c(C(=O)O)cn3C2CC2)CCN1	-	-	Mycobacterium avium complex	14 strains	-	MIC90	32 µg/mL
Cc1cccc(Cn2cc(/C=N/Nc3nncs3)c3ccccc32)c1	-	broth dilution	Mycobacterium bovis BCG	1173P2	24 h	MIC100	15.63 µg/mL
O=C1c2cc(Cl)ccc2OP(=O)(c2ccccc2)N1c1ccc(Cl)c(Cl)c1	-	-	Mycobacterium kansasii	My 6509/96	14 d	MIC	16 µM
NNC(=S)N/N=C/c1cn(Cc2cccc(F)c2)c2ccccc12	-	broth dilution	Mycobacterium bovis BCG	1173P2	48 h	MIC100	>500 µg/mL
CC(C)N1CCN(c2c(F)cc3c(=O)c(C(=O)O)cn(C4CC4)c3c2F)CC1	-	-	Mycobacterium smegmatis	KD1998 (GYRA D95N)	-	MIC99	6.8 µg/mL
CCNCC1CCN(c2c(F)cc3c(=O)c(C(=O)O)cn(C4(C)CC4)c3c2F)C1	-	-	Mycobacterium avium complex	14 strains	-	MIC90	16 µg/mL
CCC1CN(c2cc3c(cc2F)c(=O)c(C(=O)O)cn3C2CC2)CCN1	-	-	Mycobacterium smegmatis	KD1998 (GYRA D95N)	-	MIC99	3.6 µg/mL
Cc1cc(NS(=O)(=O)c2ccc(NC(=O)N3CCC3)cc2)no1	-	broth dilution / absorbance	Mycobacterium kansasii	6509/96 clinical isolate	21 d	MIC100	16 µM
COc1c(N2CCNCC2)c(F)cc2c(=O)c(C(=O)O)cn(C3CC3)c12	-	-	Mycobacterium avium complex	14 strains	-	MIC50	1 µg/mL
CCCCCCn1cc(/C=N/Nc2nncs2)c2ccccc21	-	broth dilution	Mycobacterium bovis BCG	1173P2	48 h	MIC100	15.63 µg/mL
COc1c(N2CCNC(C)C2)c(F)cc2c(=O)c(C(=O)O)cn(C3CC3)c12	-	-	Mycobacterium smegmatis	KD2012 (GYRA G89A)	-	MIC99	0.18 µg/mL
C[C@H]1c2cccc(O)c2C(O)=C2C(=O)[C@]3(O)C(O)=C(C(N)=O)C(=O)[C@@H](N(C)C)[C@@H]3[C@@H](O)[C@@H]21	-	broth dilution	Mycobacterium chelonae	-	-	MIC50	>128 µg/mL
CC1CN(c2c(F)cc3c(=O)c(C(=O)O)cn(C4CC4)c3c2F)CCN1	-	-	Mycobacterium smegmatis	KD1995 (GYRA D95H)	-	MIC99	1 µg/mL
CCCNC(=O)Nc1ccc(S(=O)(=O)Nc2cc(C)on2)cc1	-	broth dilution / absorbance	Mycobacterium kansasii	6509/96 clinical isolate	7 d	MIC100	250 µM
O=C(Nc1ccc(C(F)(F)F)cc1)c1cc(Cl)ccc1OP(=O)(Oc1ccccc1)Oc1ccccc1	-	-	Mycobacterium kansasii	My 235/80	21 d	MIC	4 µM
CC(C)N1CCN(c2c(F)cc3c(=O)c(C(=O)O)cn(C4CC4)c3c2F)CC1	-	-	Mycobacterium avium complex	14 strains	-	MIC90	8 µg/mL
O=C1c2cc(Br)ccc2OP(=O)(c2ccccc2)N1c1ccc(C(F)(F)F)cc1	-	-	Mycobacterium kansasii	My 6509/96	7 d	MIC	8 µM
CN[C@@H]1[C@H](O[C@H]2[C@H](O[C@H]3[C@H](O)[C@@H](O)[C@H](N=C(N)N)[C@@H](O)[C@@H]3N=C(N)N)O[C@@H](C)[C@]2(O)C=O)O[C@@H](CO)[C@H](O)[C@H]1O	-	-	Mycobacterium avium complex	Isolate C-37	-	MIC	>400 µg/mL
CCC1CN(c2c(F)cc3c(=O)c(C(=O)O)cn(C4CC4)c3c2F)CCN1	-	-	Mycobacterium smegmatis	KD2003 (GYRA D95G)	-	MIC99	1.4 µg/mL
C[C@@H]1CN(c2c(F)c(N)c3c(=O)c(C(=O)O)cn(C4CC4)c3c2F)C[C@H](C)N1	-	broth dilution	Mycobacterium avium complex	7	-	MIC	0.12 µg/mL
CCN1CCN(c2c(F)cc3c(=O)c(C(=O)O)cn(C4CC4)c3c2OC)CC1	-	-	Mycobacterium smegmatis	KD2008 (GYRA G89C)	-	MIC99	2.4 µg/mL
Cc1cccc(Cn2cc(/C=N/NC(=S)NN)c3ccccc32)c1	-	broth dilution	Mycobacterium bovis BCG	1173P2	48 h	MIC100	>500 µg/mL
O=C(Nc1ccc(Cl)cc1)c1cc(Cl)ccc1OP(=O)(OCc1ccccc1)OCc1ccccc1	-	-	Mycobacterium kansasii	My 6509/96	7 d	MIC	16 µM
CO[C@H]1/C=C/O[C@@]2(C)Oc3c(C)c(O)c4c(O)c(c5c(c4c3C2=O)NC2(CCN(CC(C)C)CC2)N=5)=NC(=O)/C(C)=C\C=C\[C@H](C)[C@H](O)[C@@H](C)[C@@H](O)[C@@H](C)[C@H](OC(C)=O)[C@@H]1C	-	-	Mycobacterium avium complex	52 isolates	-	MIC50	0.39 µg/mL
O=C(Nc1ccc(Br)cc1)c1cc(Cl)ccc1OP(=O)(OCc1ccccc1)OCc1ccccc1	-	-	Mycobacterium kansasii	My 6509/96	21 d	MIC	32 µM
Cc1ccc(Cn2cc(/C=N/NC(=S)NN)c3ccccc32)cc1	-	broth dilution	Mycobacterium bovis BCG	1173P2	24 h	MIC100	>500 µg/mL
Nc1ccc(S(=O)(=O)c2ccc(N)cc2)cc1	-	-	Mycobacterium ulcerans	ATCC 19423	-	MIC	2 µg/mL
CNc1ccc2oc(C[C@@H]3OC4(CC[C@@H]3C)O[C@H](C(C)C(=O)c3ccc[nH]3)[C@H](C)C[C@H]4C)nc2c1C(=O)O	-	resazurin	Mycobacterium aurum	-	-	MIC	0.08 µg/mL
CC(C)N1CCN(c2cc3c(cc2F)c(=O)c(C(=O)O)cn3C2CC2)CC1	-	-	Mycobacterium smegmatis	KD1995 (GYRA D95H)	-	MIC99	3.6 µg/mL
CCNC(=O)Nc1ccc(S(=O)(=O)Nc2cc(C)on2)cc1	-	broth dilution / absorbance	Mycobacterium kansasii	235/80	14 d	MIC100	250 µM
CCN1CCN(c2c(F)cc3c(=O)c(C(=O)O)cn(C4CC4)c3c2F)CC1	-	-	Mycobacterium smegmatis	KD2008 (GYRA G89C)	-	MIC99	3.2 µg/mL
O=C1c2ccccc2OP(=O)(c2ccccc2)N1c1ccccc1	-	-	Mycobacterium kansasii	My 235/80	21 d	MIC	500 µM
CCCCN1CCN(c2cc3c(cc2F)c(=O)c(C(=O)O)cn3C2CC2)CC1	-	-	Mycobacterium avium complex	14 strains	-	MIC50	4 µg/mL
Cc1cc(NS(=O)(=O)c2ccc(NC(=O)Nc3ccc(S(=O)(=O)Nc4cc(C)on4)cc3)cc2)no1	-	broth dilution / absorbance	Mycobacterium kansasii	6509/96 clinical isolate	14 d	MIC100	4 µM
CC1CN(c2cc3c(cc2F)c(=O)c(C(=O)O)cn3C(C)C)CC(C)N1	-	-	Mycobacterium avium complex	14 strains	-	MIC50	16 µg/mL
CCCCCNC(=O)Nc1ccc(S(=O)(=O)Nc2cc(C)on2)cc1	-	broth dilution / absorbance	Mycobacterium kansasii	235/80	7 d	MIC100	250 µM
CO[C@H]1/C=C/O[C@@]2(C)Oc3c(C)c(O)c4c(O)c(c5c(c4c3C2=O)NC2(CCN(CC(C)C)CC2)N=5)=NC(=O)/C(C)=C\C=C\[C@H](C)[C@H](O)[C@@H](C)[C@@H](O)[C@@H](C)[C@H](OC(C)=O)[C@@H]1C	-	-	Mycobacterium avium complex	9838	-	MBC	16 µg/mL
O=C(Nc1ccccc1)c1ccccc1OP(=O)(Oc1ccccc1)Oc1ccccc1	-	-	Mycobacterium kansasii	My 235/80	7 d	MIC	250 µM
CN(C)c1cc(NC(=O)CNC(C)(C)C)c(O)c2c1C[C@H]1C[C@H]3[C@H](N(C)C)C(=O)C(C(N)=O)=C(O)[C@@]3(O)C(=O)C1=C2O	-	broth dilution	Mycobacterium massiliense	X73	-	MIC	2 µg/mL
COc1nc2ccc(Br)cc2cc1[C@@H](c1ccccc1)[C@@](O)(CCN(C)C)c1cccc2ccccc12	C410 deletion	resazurin	Mycobacterium aurum	-	-	MIC	0.04 µg/mL
CCC1CN(c2c(F)cc3c(=O)c(C(=O)O)cn(C4CC4)c3c2OC)CCN1	-	-	Mycobacterium smegmatis	KD2003 (GYRA D95G)	-	MIC99	0.65 µg/mL

3 of the rows above, restated:

compound | mutations | method | organism | strain or isolate | conditions | endpoint | value
CC(C)N1CCN(c2c(F)cc3c(=O)c(C(=O)O)cn(C4CC4)c3c2F)CC1 | - | - | Mycobacterium avium complex | 14 strains | - | MIC90 | 8 µg/mL
CC1CN(c2cc3c(cc2F)c(=O)c(C(=O)O)cn3C(C)C)CC(C)N1 | - | - | Mycobacterium avium complex | 14 strains | - | MIC50 | 16 µg/mL
CNc1ccc2oc(C[C@@H]3OC4(CC[C@@H]3C)O[C@H](C(C)C(=O)c3ccc[nH]3)[C@H](C)C[C@H]4C)nc2c1C(=O)O | - | resazurin | Mycobacterium aurum | - | - | MIC | 0.08 µg/mL

MIC50, MIC90 and the like: level of inhibition, or share of isolates inhibited. Blank or dashed fields: not listed here.